US9206412B2, “Thioxothiazolidine inhibitors” (Colorado State University Research Foundation, priority 2012, dated 2015)

Amino acid sequences for entries named in this document (tags omitted). Residues count along the entry.
UniProt P29990, 2492-2758 limits assumed: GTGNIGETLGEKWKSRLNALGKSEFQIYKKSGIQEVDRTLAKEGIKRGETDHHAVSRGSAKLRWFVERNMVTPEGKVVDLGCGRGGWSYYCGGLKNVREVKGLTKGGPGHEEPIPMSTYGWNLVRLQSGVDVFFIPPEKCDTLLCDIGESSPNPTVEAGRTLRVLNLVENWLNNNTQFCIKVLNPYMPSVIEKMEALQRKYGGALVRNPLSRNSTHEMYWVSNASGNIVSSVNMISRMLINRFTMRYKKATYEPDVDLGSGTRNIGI

What was measured:
[1] = target: dengue virus capping enzyme (Dengue virus type 2, UniProt P29990)
[2] = target: yellow fever virus capping enzyme (Yellow fever virus, UniProt P03314)
[3] = test system: dengue type 2 virus subgenomic replicon (BHK-pD2hRucPac); test: Antiviral (replicon) assay, Renilla luciferase; format: cell-based; details: read-out: Replicon Assay_EC50_M; Table 2-1

Work on O=C(CCN1C(=O)SC(=Cc2ccc(Cl)cc2)C1=O)Nc1ccc(S(=O)(=O)Nc2nccs2)cc1 yielded a Ki [1] of 6 µM, a Ki [2] of 6 µM and an EC50 [3] of 50 µM.
